Measured values from several laboratories, pooled; numbers as filed in NIAID ChemDB.

All rows: whole-cell or culture tests; organism: Influenza A virus; cells: MDCK; endpoint: EC50

Conditions beyond the fields shown may differ between rows. ECn is the concentration giving n% inhibition of infection, replication or growth. a–b is a range or a potency band. Blank or dashed fields: not listed here.

| SMILES | strain | method | value |
|---|---|---|---|
| Nc1cc(Cl)nc(N)n1 | H1N1 A/PR/8/34 | plaque count | >690 µM |
| CC1=C(C)C2(C)CCC(C)(C)C1C2N |  | plaque count | 53 µM |
| CC(=O)N[C@H]1[C@H]([C@H](OC(=O)NCCCCCCNC(=O)CCC(NC(=O)C(F)(F)F)C(=O)NCC(=O)NCCCCCCNC(=O)O[C@@H]([C@@H]2OC(C(=O)O)=C[C@H](N=C(N)N)[C@H]2NC(C)=O)[C@H](O)CO)[C@H](O)CO)OC(C(=O)O)=C[C@@H]1N=C(N)N | A/Victoria/3/75 B010 | cytopathic effect | 0.002 µg/mL |
| C[C@@]1(O)CC2CCCC1C2N |  | plaque count | >100 µM |
| N#CNc1nncs1 | A/X-15 | plaque count | 1.19 µg/mL |
| O=C(CCBr)N1CC[N+]2(CC1)CC[N+]1(CCN(C(=O)CCBr)CC1)CC2 |  | cytopathic effect | >70 µg/mL |
| Cc1ccc(O)c(C(=O)NCCN2CCC(C)[C@@H]3CCCC[C@@H]32)c1 | H1N1 A/WSN/33 (H1N1) | plaque count | >50 µg/mL |
| CC#Cc1cn([C@@H]2O[C@H](COP(=O)(O)OCCCCCCCCCCCC)[C@@H](O)[C@@H]2O)c(=O)[nH]c1=O | H1N1 A/Sweden/3/50 | plaque count | >100 µM |
| CC(=O)N[C@H]1[C@H]([C@H](O)[C@H](O)CO)OC(C(=O)O)=C[C@@H]1N=C(N)N | H1N1 A/TEXAS/36/91 | neutral red | 0.018 µM |
| CCCOc1ncn(-c2ccc(NC(=S)Nc3ncccn3)cc2)n1 | Ishikawa | cytopathic effect | 40 µg/mL |
| C[C@H]1C2CCCC(C)(C2N)[C@H]1C |  | plaque count | 13.4 µM |
| CCCOc1ncn(-c2ccc(NC(=S)NC3O[C@H](CO)[C@@H](O)[C@H](O)[C@H]3O)cc2)n1 | Ishikawa | cytopathic effect | >200 µg/mL |
| CC(C)N1C2CCC23CC[C@@H](NC(=O)c2cc(Cl)ccc2O)CC13 | H1N1 A/WSN/33 (H1N1) | plaque count | >50 µg/mL |
| CCOc1ncn(-c2ccc(NC(=S)Nc3ncccn3)cc2)n1 | Ishikawa | cytopathic effect | >8 µg/mL |
| CC#Cc1cn([C@@H]2O[C@H](COP(=O)(O)OCCCCCCCCCCCCCCCC)[C@@H](O)[C@@H]2O)c(=O)[nH]c1=O | H1N1 A/Sweden/3/50 | plaque count | >10 µM |
| CC(=O)N[C@H]1[C@H]([C@H](O)[C@H](O)CO)OC(C(=O)O)=C[C@@H]1N=C(N)N | H1N1 A/Bayern/09/95 |  | 3.4 µM |
| CC1(CO)CCC(Cn2cnc3c(=O)[nH]cnc32)C1(C)C | H3N2 X31 | cytopathic effect | >250 µg/mL |
| CCC1=C(CC)C2(C)CC[C@@H](C(C)C)C1C2N |  | plaque count | >20 µM |
| Nc1ncnc2c1ncn2[C@@H]1O[C@H](C=NOCc2ccccc2)[C@@H](O)[C@H]1O | Ishiwara | cytopathic effect | 20 µg/mL |
| CC#Cc1cn([C@@H]2O[C@H](COP(=O)(OCC)Oc3ccccc3)[C@@H](O)[C@@H]2O)c(=O)[nH]c1=O | H1N1 A/Sweden/3/50 | plaque count | >100 µM |
| O=C(NCCCN1CCC[C@@H]2CCCC[C@@H]21)c1cc(Cl)ccc1O | H1N1 A/WSN/33 (H1N1) | plaque count | >50 µg/mL |
| CCOc1ncn(-c2ccc(NC(=S)Nc3cnccn3)cc2)n1 | Ishikawa | cytopathic effect | >20 µg/mL |
| CC(=O)N[C@H]1[C@H]([C@H](O)[C@H](O)CO)OC(C(=O)O)=C[C@@H]1N=C(N)N | H3N2 A/AICHI/1168 | virus yield | 0.06 µM |
| CCNC1C2CCCC1(C)[C@@H](C)[C@H]2C |  | plaque count | 15.1 µM |
| Cc1nc(N2CC[N+]3(CC2)CC[N+]2(CCN(c4nc(C)[nH]c(=O)c4[N+](=O)[O-])CC2)CC3)c([N+](=O)[O-])c(=O)[nH]1 |  | cytopathic effect | >70 µg/mL |
| COc1cc(NCC2(CO)CCC2)nc(N)n1 | H1N1 A/PR/8/34 | plaque count | 46–120 µM |
| CC1(CO)CCC(Cn2ccc(=O)[nH]c2=O)C1(C)C | H3N2 X31 | cytopathic effect | >250 µg/mL |
| Cc1ccc(O)c(C(=O)NC2CCNCC2)c1 | H1N1 A/WSN/33 (H1N1) | plaque count | >50 µg/mL |
| Nc1ccnc(N)n1 | H1N1 A/PR/8/34 | plaque count | >910 µM |
| Cc1nc(N2CCCC2)c([N+](=O)[O-])c(N2CC[N+]3(CC2)CC[N+]2(CCN(c4nc(C)nc(N5CCCC5)c4[N+](=O)[O-])CC2)CC3)n1 |  | cytopathic effect | >70 µg/mL |
| Nc1ncnc2c1ncn2[C@@H]1O[C@H](C=NO)[C@@H](O)[C@H]1O | Ishiwara | cytopathic effect | 0.8 µg/mL |
| O=[N+]([O-])c1c(N2CC[N+]3(CC2)CC[N+]2(CCNCC2)CC3)ncnc1N1CC[N+]2(CC1)CC[N+]1(CCN(c3ncnc(N4CC[N+]5(CC4)CC[N+]4(CCNCC4)CC5)c3[N+](=O)[O-])CC1)CC2 |  | cytopathic effect | >70 µg/mL |
| C[C@@H]1CCC[C@H](C)N1CCCNC(=O)c1cc(Cl)ccc1O | H1N1 A/WSN/33 (H1N1) | plaque count | 1 µg/mL |
| Cc1nc(Cl)c([N+](=O)[O-])c(N2CC[N+]3(CC2)CC[N+]2(CCN(c4nc(C)nc(Cl)c4[N+](=O)[O-])CC2)CC3)n1 |  | cytopathic effect | >70 µg/mL |
| Cc1ccc(O)c(C(=O)NCCCN2[C@H](C)CCC[C@@H]2C)c1 | H1N1 A/WSN/33 (H1N1) | plaque count | 0.7 µg/mL |
| Cc1nc(N2CC[N+]3(CC2)CC[N+]2(CCNCC2)CC3)c([N+](=O)[O-])c(N2CC[N+]3(CC2)CC[N+]2(CCNCC2)CC3)n1 |  | cytopathic effect | >70 µg/mL |
| NC(=O)c1nc(F)c[nH]c1=O | H1N1 A/PR/8/34 | plaque count | <1 µg/mL |
| C/C(=C\CCC(C)[C@H]1CC[C@@]2(C)C3=CCC4C(C)(C)[C@@H](O)CC[C@]4(C)C3=CC[C@]12C)CO |  |  | >220 µM |
| CCCOc1ncn(-c2ccc(NC(=S)Nc3cnccn3)cc2)n1 | Ishikawa | cytopathic effect | ≥100 µg/mL |
| CN1C2CCC23CC[C@H](NC(=O)c2cc(Cl)ccc2O)CC13 | H1N1 A/WSN/33 (H1N1) | plaque count | >50 µg/mL |

3 of the rows above, restated:

CC1=C(C)C2(C)CCC(C)(C)C1C2N ; method: plaque count ; value: 53 µM
CCCOc1ncn(-c2ccc(NC(=S)Nc3cnccn3)cc2)n1 ; strain: Ishikawa ; method: cytopathic effect ; value: ≥100 µg/mL
N#CNc1nncs1 ; strain: A/X-15 ; method: plaque count ; value: 1.19 µg/mL